Experimental data from paper PMC5862892, “Near-native, site-specific and purification-free protein labeling for quantitative protein interaction analysis by MicroScale Thermophoresis” (Scientific Reports, 2018).

Test system: RED-tris-NTA/His6-peptide interaction
Assay: Buffer additive screen: His6-peptide titrated against RED-tris-NTA with additives in PBST
Format: binding
Conditions: highest additive concentration that did not alter the Kd of His6-peptide/RED-tris-NTA, PBST

Maximum allowed assay concentration, 1 mM:
Nc1nc2c(ncn2[C@@H]2O[C@H](COP(=O)(O)OP(=O)(O)OP(=O)(O)O)[C@@H](O)[C@H]2O)c(=O)[nH]1 [GTP]
N[C@@H](Cc1c[nH]cn1)C(=O)O [Histidine]
OCCS [ß-mercapto-ethanol]
Nc1nc2c(ncn2[C@@H]2O[C@H](COP(=O)(O)OP(=O)(O)O)[C@@H](O)[C@H]2O)c(=O)[nH]1 [GDP]
c1c[nH]cn1 [Imidazole]

Maximum allowed assay concentration, 0.5 mM:
O=C(O)CN(CCN(CC(=O)O)CC(=O)O)CC(=O)O [EDTA, ethylenediaminetetraacetic acid]
O=C(O)CN(CCOCCOCCN(CC(=O)O)CC(=O)O)CC(=O)O [EGTA, ethylenglycol-bis(aminoethylether)]

Maximum allowed assay concentration, 5 mM:
Nc1ncnc2c1ncn2[C@@H]1O[C@H](COP(=O)(O)OP(=O)(O)O)[C@@H](O)[C@H]1O [ADP]
[Mg+2] [Mg(II)]
Nc1ncnc2c1ncn2[C@@H]1O[C@H](COP(=O)(O)O)[C@@H](O)[C@H]1O [AMP]
Nc1ncnc2c1ncn2[C@@H]1O[C@H](COP(=O)(O)OP(=O)(O)OP(=O)(O)O)[C@@H](O)[C@H]1O [ATP]
O[C@@H](CS)[C@@H](O)CS (racemic) [DTT, dithiothreitol]

Same assay, conditions: tested at 100 nM; ions compete for binding with tris-NTA fluorophores

Maximum allowed assay concentration (in words), preloaded protein only:
[Cu+2] [Cu(II)]
[Zn+2] [Zn(II)]
